In PubChem BioAssay AID2315 (National Center for Advancing Translational Sciences (NCATS), 2010) one finds inhibition data, which are given here for 64 compounds.

As a reminder, the inhibition is the drop in the measured response relative to a control, in per cent.

Each structure is given as a SMILES string. The entries are a selection whose mix differs from that of the whole data set. Activity calls are given as the source filed them. No stated cut-off is given here; in the data, active means inhibition mostly above about 28% (no sharp cut-off); inactive means mostly below about 43%.

The assay can be described thus: A qHTS for Small Molecule Inhibitors of Shiga Toxin. On inhibition: 0% is about no effect. The conditions noted are these: Vero cells, Shiga toxin protein synthesis inhibition reporter; at 38.7 µM, active compounds read high.
Consider `CCOC(=O)c1ccc(NP(C)(=O)Oc2ccc(F)cc2)cc1` (centres undefined), for which the inhibition is inactive: 10.1%. The same measure for `COc1ccc(OP(C)(=O)Nc2ccc(SC(F)(F)F)cc2)cc1` (centres undefined): inactive: -4.66%; for `CCNC(=S)/N=C(\N)N[N+](=O)[O-]`: inactive: -11.6%.

`CP(=O)(Nc1ccccc1)Oc1ccc(F)cc1` (centres undefined): the inhibition was inactive: -2.12%. The same measure for `O=c1c2cc([N+](=O)[O-])ccc2[nH]c2c([N+](=O)[O-])cc([N+](=O)[O-])cc12`: inactive: -3.59%; for `CCCCCOc1ccc(NP(C)(=O)Oc2ccc(Cl)cc2Cl)cc1` (centres undefined): inactive: 3.33%.

Regarding `CCN(CC)CCCOC(=O)C(O)(c1ccccc1)C1CCCCC1` (centres undefined), the inhibition was inactive: -5.1%. For `CP(=O)(Nc1ccccc1F)Oc1ccccc1` (centres undefined), the inhibition is inactive: -4.68%. The same measure for `CC(C)c1ccc(OP(C)(=O)Nc2ccc(SC(F)(F)F)cc2)cc1` (centres undefined): inactive: -7.98%. Then `O=C(OCCN1CCN(CCOCc2ccccc2)CC1)C(O)(c1ccccc1)c1ccccc1`, with inactive: -11.2%; and `CCOP(C)(=S)SCC(=O)NC(C)(CC)C(=O)O` (centres undefined), with inactive: 8.84%. Then `c1nnnn1CCn1cnnn1`, with inactive: 25.2%; and `CP(=O)(Nc1ccc(SC(F)(F)F)cc1)Oc1ccc(F)cc1` (centres undefined), with inactive: -12.9%. Take `Cc1ccccc1NP(C)(=O)Nc1ccccc1C`: the inhibition is inactive: -12.9%. In the case of `CP(=O)(Nc1ccc2c(c1)OCCO2)Oc1ccccc1` (centres undefined), the inhibition was inactive: 44.8%. Then `CN(C)CCOC(=O)C(O)(c1ccccc1)C1CCCCC1` (centres undefined), with inactive: -1.52%. Then `COc1ccc(NP(C)(=O)Oc2ccccc2OC)cc1` (centres undefined), with inactive: -19.4%; and `COc1ccc(OP(C)(=O)Nc2cccc(Br)c2)cc1` (centres undefined), with inactive: -14.4%; and `C(Cc1nn[nH]n1)Cc1nn[nH]n1`, with inactive: 12.2%. For the compound `O=[N+]([O-])c1ccc(OP2(=O)COCCO2)cc1` (centres undefined), the inhibition was inactive: -6.05%. Then `O=[N+]([O-])c1ncn(CCn2cnc([N+](=O)[O-])n2)n1`, with inactive: -2.63%; and `Cc1cc(-c2cccc3ccccc23)c(C)cn1.O=[N+]([O-])c1cc([N+](=O)[O-])c(O)c([N+](=O)[O-])c1`, with inactive: 24.6%; and `CCOC(=O)c1ccc(NP(C)(=O)Oc2ccc(Cl)cc2)cc1` (centres undefined), with inactive: -11.2%. The same measure for `CP(=O)(OC12CC3CC(CC(C3)C1)C2)OC12CC3CC(CC(C3)C1)C2`: inactive: 29.7%; for `O=[N+]([O-])c1ncn(CCn2ncnc2[N+](=O)[O-])n1`: inactive: -3.02%; for `COc1ccccc1OP(C)(=O)Nc1c(C)n(C)n(-c2ccccc2)c1=O` (centres undefined): inactive: 2.01%. Then `O=C(OCCCN1CCCC1)C(O)(c1ccccc1)C1CCCCC1` (centres undefined), with inactive: -13.3%; and `CP(=O)(Oc1ccccc1)N1CCOC1=O` (centres undefined), with inactive: 26.2%; and `O=[N+]([O-])c1cc([N+](=O)[O-])c(CCNc2ccccc2)c([N+](=O)[O-])c1`, with inactive: 13.6%.

Turning to `CCc1nc2c(n1)c1c(non1O)c1c2no[n+]1[O-]`, the inhibition is inactive: -12.5%. `CCc1ccc(OP(C)(=O)Nc2cccnc2)cc1` (centres undefined): the inhibition was inactive: -18.4%. The same measure for `CCN(CC)CC(O)COC(=O)C(O)(c1ccccc1)C1CCCCC1` (centres undefined): inactive: -1.45%. Regarding `COc1ccc(OP(C)(=O)Nc2ccc(Br)cc2)cc1` (centres undefined), the inhibition is inactive: 1.35%. Then `CC(C)=N/N=C(\N)N[N+](=O)[O-]`, with inactive: -8.27%.

Take `CN(C)C(=O)c1c([N+](=O)[O-])cc([N+](=O)[O-])cc1[N+](=O)[O-]`: the inhibition was inactive: 17.7%. Then `CC(C)(C)c1ccc(OP(C)(=O)O)cc1`, with inactive: -11.2%; and `COc1ccccc1OP(C)(=O)Nc1ccccc1Br` (centres undefined), with inactive: -16.5%; and `C[N+]1=C2C=CC=CC=C2SC12C([N+](=O)[O-])=CC([N+](=O)[O-])=C[C-]2[N+](=O)[O-]` (centres undefined), with active: 130%. Take `CP(=O)(Nc1ccc(Cl)cc1)Oc1ccc(F)cc1` (centres undefined): the inhibition was inactive: 29.3%. Then `COc1ccc(OP(C)(=O)Nc2ccccn2)cc1` (centres undefined), with inactive: -7.28%; and `CN(C)CCOC(=O)C(O)(c1ccccc1)C1CCCC1` (centres undefined), with inactive: -24.2%; and `COc1ccccc1OP(C)(=O)Nc1ccc(Br)cc1` (centres undefined), with inactive: 19.9%. Consider `CP(=O)(Nc1ccccn1)Oc1ccccc1` (centres undefined), for which the inhibition is inactive: -2.69%. The same measure for `COc1ccccc1OP(C)(=O)Nc1ccc(C)cc1C` (centres undefined): inactive: -13.9%; for `CCc1ccc(OP(C)(=O)O)cc1`: inactive: 36.6%. Then `O=[N+]([O-])c1cc([N+](=O)[O-])c(Nc2ccccn2)c([N+](=O)[O-])c1`, with inactive: -3.7%; and `Nc1cc(N)c2nonc2c1[N+](=O)[O-]`, with inactive: 17.6%. Then `Cc1c(NP(C)(=O)Oc2ccc(C(C)C)cc2)c(=O)n(-c2ccccc2)n1C` (centres undefined), with inactive: -8.2%. For the compound `COc1ccccc1OP(C)(=O)Nc1ccc(C)c(C)c1` (centres undefined), the inhibition is inactive: -12.5%. Then `COc1ccc(OP(C)(=O)Nc2ccccc2Br)cc1` (centres undefined), with inactive: -8.08%; and `Cc1cc(C)cc(OP(C)(=O)Nc2cccc(C(F)(F)F)c2)c1` (centres undefined), with inactive: -1.73%; and `CCN(N=Nc1nonc1N)c1nonc1N`, with inactive: -10.3%.

Take `CP(=O)(OCCOc1ccccc1)OCCOc1ccccc1`: the inhibition was inactive: -7.3%. The same measure for `CP(=O)(Nc1ccc(Cl)cc1Cl)Oc1ccccc1` (centres undefined): inactive: -6.65%; for `Cc1nc2ccc3ccccc3c2o1.O=[N+]([O-])c1cc([N+](=O)[O-])c(O)c([N+](=O)[O-])c1`: “active”. Then `O=[N+]([O-])c1cc([N+](=O)[O-])c(CCN2CCOCC2)c([N+](=O)[O-])c1`, with inactive: -2.28%; and `O=[N+]([O-])c1ccc2c(c1)C=Nc1ccccc1O2`, with inactive: -13.2%. The same measure for `CC(C)(C)c1ccc(OP(C)(=O)Nc2ccc(SC(F)(F)F)cc2)cc1` (centres undefined): inactive: -6.48%; for `O=C(O)C(O)(c1ccccc1)c1ccccc1`: inactive: 22.7%. As to `Cc1cccc(C)c1OP(C)(N)=O` (centres undefined), the inhibition is inactive: -17%.

Take `O=C(O)C1(O)c2ccccc2-c2ccccc21`: the inhibition is inactive: 4.9%. Then `Cc1cc(C)cc(OP(C)(N)=O)c1` (centres undefined), with inactive: -12.4%; and `COc1ccccc1OP(C)(=O)Nc1cc(Cl)ccc1C` (centres undefined), with inactive: 4.5%; and `COc1ccc(OP(C)(=O)Nc2cccc(F)c2)cc1` (centres undefined), with inactive: -11.1%.
